The term inhibition denotes the share of the control response that was lost under treatment.

In the assay the target is RBD-ACE2 attachment (RBD of viral spike protein and ACE2 receptor) (Severe acute respiratory syndrome coronavirus 2, UniProt P0DTC2). Description: cell-based. The arrangement: species or system SARS-CoV-2; human.

Consider `O=C1CCc2ccc(OCCCCN3CCN(c4cccc(Cl)c4Cl)CC3)cc2N1` [Aripiprazole], for which the “Positive Screening RBD Attachment Assay Dose Response” value was “Yes”. The inhibition at 20 µM (HeLa, read-out: Positive Screening RBD Attachment Assay % Inhibition (20 μM)) came to 56%. In addition, the inhibition at 100 µM (HeLa, read-out: Positive Screening RBD Attachment Assay % Inhibition (100 μM)) was 71%.

(Values after article PMC8999638, “Identification of Entry Inhibitors against Delta and Omicron Variants of SARS-CoV-2” (International Journal of Molecular Sciences, 2022).)
